Source: paper PMC5072668

Test system: O=[N+]([O-])c1ccc(O[C@@H]2O[C@@H](CO)[C@H](O)[C@H]2O)cc1
Experiment: purified protein
Settings: 50 mM sodium phosphate pH 7.0, 45 °C, printed unit doubtful (assay used 1 mM substrate; mM possible)

MoAbfB (arabinofuranosidase-B) (Pyricularia oryzae 70-15)
Km: 0.001206 mM
